Structure probing of HIV-1 leader RNA with DMS

The 5' region of HIV-1 NL4-3 RNA (positions 1-437):
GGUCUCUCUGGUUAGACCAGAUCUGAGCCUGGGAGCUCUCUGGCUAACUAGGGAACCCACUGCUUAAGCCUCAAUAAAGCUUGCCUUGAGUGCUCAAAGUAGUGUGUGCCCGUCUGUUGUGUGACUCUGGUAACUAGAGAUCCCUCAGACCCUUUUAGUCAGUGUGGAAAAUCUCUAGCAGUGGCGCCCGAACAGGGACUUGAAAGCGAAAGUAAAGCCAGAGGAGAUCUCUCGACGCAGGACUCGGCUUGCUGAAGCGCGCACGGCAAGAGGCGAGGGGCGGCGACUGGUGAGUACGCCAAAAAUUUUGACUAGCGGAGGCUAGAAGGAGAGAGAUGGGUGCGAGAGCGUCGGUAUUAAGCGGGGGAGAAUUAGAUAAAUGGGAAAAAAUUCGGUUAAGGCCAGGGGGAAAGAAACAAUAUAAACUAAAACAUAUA

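Mutant RNA libraries with 1G, 2G or 3G starts, with or without cap, were folded at 37 °C for 30 min. High salt was 300 mM KCl and 5 mM MgCl2, low salt 40 mM KCl and 0.1 mM MgCl2; monomer and dimer were parted on a native gel. Each band was probed in the gel with DMS (170 mM, 15 min, 37 °C), with ethanol as control, and sequenced.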

Values are winsor-normalised DMS reactivities of A and C; higher means more reactive, usually unpaired. One numbering serves 1G, 2G and 3G. A position is written with its base.

position,1G uncapped low-salt monomer,2G capped high-salt dimer
A198,0.58,0.54
A399,0.44,0.26
C85,0.30,0.40
A34,1.00,1.03
A437,0.05,0.03
A171,0.48,0.45
C56,0.18,0.03
A50,0.26,0.13
A368,0.99,0.78
C260,0.44,0.32
A324,0.10,0.07
C23,1.18,1.18
A169,0.68,0.67
A293,0.83,0.87
A305,0.72,0.68
C316,0.10,0.05
A411,0.69,0.82
A326,0.81,0.89
A98,0.38,0.26
A389,0.17,0.17
C343,0.23,0.33
A374,0.43,0.50
C229,0.21,0.16
A336,1.04,0.74
C40,0.05,0.03
C127,0.05,0.03
C189,0.13,0.10
A296,0.59,0.57
A138,0.12,0.11
A388,0.09,0.08
C152,0.86,0.82
C238,0.65,0.45
C160,0.05,0.05
C349,0.30,0.35
A416,0.47,0.44
A170,0.55,0.48
A180,0.55,0.61
A161,0.48,0.44
C150,0.07,0.04
C300,0.05,0.07
C125,0.09,0.08
A356,1.14,0.92
A191,0.38,0.39
A74,0.74,0.58
A140,0.39,0.32
A168,0.44,0.43
A370,0.46,0.51
C28,0.05,0.03
A359,0.35,0.58
C426,0.74,0.73
A271,0.59,0.52
C95,0.54,0.55
A255,0.46,0.47
A386,1.26,1.26
A286,0.53,0.63
A157,0.91,0.91
C142,0.07,0.07
A304,0.18,0.16
A347,0.32,0.26
A220,0.30,0.21
A303,0.08,0.07
C243,0.07,0.03
C362,0.21,0.39
A55,0.52,0.25
A97,0.46,0.30
C179,0.74,0.84
A76,0.30,0.24
A147,0.42,0.42
C114,0.24,0.26
C297,0.14,0.13
C352,0.36,0.40
A425,0.49,0.50
C63,0.12,0.11
A19,0.05,0.03
A423,0.38,0.42
A332,0.64,0.46
A430,0.51,0.54
C199,0.47,0.45
A404,0.22,0.27
A215,0.55,0.63
A96,0.28,0.21
A314,0.05,0.03
A302,1.20,1.15
C58,0.17,0.54
C417,0.87,0.80
C402,0.05,0.04
A26,0.21,0.10
C44,0.05,0.03

Excerpt, the final 5 entries:

position	1G uncapped low-salt monomer	2G capped high-salt dimer
C58	0.17	0.54
C417	0.87	0.80
C402	0.05	0.04
A26	0.21	0.10
C44	0.05	0.03

Source: Ye et al. 2022 (doi:10.1038/s41594-022-00746-2), supplementary data.